Assay results reported in patent publication US7824691B2 (priority 2005, dated 2010).
HELM strings list residues between dots; [ac] is acetyl, [am] amide, other brackets name non-standard units.

Assay: peptide made by a vendor (peptide synthesis; PAL-PEG-PS resin)
Conditions: whole synthesis

PEPTIDE1{Y.S.P.W.T.N.F.[am]}$$$$V2.0
final HPLC purity: 99%
